Reference: ChEMBL document CHEMBL4303097 (2020)

Tested on: SARS-CoV-2
Assay: Inhibition of cell viability relative to arbidol control (inhibition index > 1 indicates higher activity) measured by fluorescence (OD590nm) in Vero E6 cells infected with SARS-CoV-2 (strain BavPat1) at MOI 0.002 after 72hrs
Assay type: functional
Details: Chlorocebus sabaeus; Vero C1008

NC(=O)Nc1ccc([As](=O)(O)O)cc1
Inhibition index: 0.0461
